Here are results for six substances from US9907812B2, “Conjugate-based antifungal and antibacterial prodrugs” (VYOME BIOSCIENCES PVT. LTD., priority 2011, dated 2018).

For data set [1], the system named is Malassezia furfur (MTCC 1374). In words: MIC by agar plate dilution (Leeming Notman medium). The class given is cell-based. The note with it: M. furfur, MIC = concentration that inhibits 100% growth.
In data set [2] the test system is lipases secreted by Malassezia furfur (MTCC 1374). The data set is described as follows: Lipase mediated hydrolysis of ketoconazole conjugates, HPLC analysis. The conditions noted are these: SDB with olive oil, Day 3.
The subject of data set [3] is Malassezia furfur (MTCC 1374). The data set is described as follows: Time kill kinetics assay. The note with it: 0.25 μg/ml, 4 hr (FIG. 30); also valid for 0.125 to 1.0 μg/ml.
Where [4] appears, read: 125 μg/ml prodrug, no innoculum.
Where [5] appears, read: 125 μg/ml prodrug, with M. furfur innoculum.
Setting [6] is: 250 μg/ml prodrug, no innoculum.
Setting [7] is: 250 μg/ml prodrug, with M. furfur innoculum.

For Ketoconazole-methylene-oleate, the MIC in data set [1] was 1.88 to 7.5 µM.

Take Ketoconazole-methylene-laureate: the MIC in data set [1] was 1.88 to 3.7 µM.

For Ketoconazole-methylene-palmitate, the MIC in data set [1] came out at 1.88 µM. This counts as single-digit micromolar.

The substance Ketoconazole-methylene-caprylate returned an MIC in data set [1] of 0.94 to 3.7 µM. Further, the “ketoconazole (Keto) formed from prodrug, HPLC” value is “Keto = 22.8%” in data set [2] (setting [4]), “Keto = 78.0%” in data set [2] (setting [5]), “Keto = 20.47%” in data set [2] (setting [6]) and “Keto = 71.7%” in data set [2] (setting [7]). For the same substance, the “remaining prodrug, HPLC” value in data set [2] (setting [4]) is reported as “KMC = 77.1%”; in data set [2] (setting [5]), “KMC = 21.0%”; in data set [2] (setting [6]), “KMC = 79.5%”; in data set [2] (setting [7]), “KMC = 28.2%”. Besides, the “speed of action in time kill assay compared to ketoconazole” value in data set [3] was “faster acting”.

In data set [1], Ketoconazole-methylene-linolate showed an MIC of 7.5 µM.

Consider Ketoconazole-methylene-undecylenate, for which the MIC in data set [1] is 3.7 to 7.5 µM.
